Compound potency records, mixed from different reports. Data source: NIAID ChemDB in PubChem.

Shared fields: whole-cell or culture tests; species: HIV-1

ECn is the concentration giving n% inhibition of infection, replication or growth. Blank or dashed fields: not listed here. Rows are shuffled and stem from different studies.

structure	read-out	mutations	strain or isolate	cell line	setting	read by	result
Nc1nc(=O)n([C@@H]2C=C[C@H](CO)O2)cc1F	EC50	-	IIIB	MT-2	-	cytopathic effect / MTT	0.09 µM
CCOC(=O)c1ccc(COP(=O)(OCc2ccc(C(=O)OCC)cc2)OC[C@H]2O[C@@H](n3cc(C)c(=O)[nH]c3=O)C[C@@H]2N=[N+]=[N-])cc1	EC50	-	GB8	JM	-	syncytia	0.007 µM
CC(C)(C)NC(=O)[C@@H]1C[C@H](Cl)CN1C(=O)[C@@H](O)[C@H](Cc1ccccc1)NC(=O)[C@H](CC(N)=O)NC(=O)c1noc2ccccc12	EC50	-	IIIB	CEM	-	p24	<0.16 µM
CCOC(=O)c1ccc(COP(=O)(O)OC[C@H]2O[C@@H](n3cc(C)c(=O)[nH]c3=O)C[C@@H]2N=[N+]=[N-])cc1	EC50	-	GB8	JM	-	syncytia	<0.019 µM
Cc1cn([C@H]2C[C@H](N=[N+]=[N-])[C@@H](CO)O2)c(=O)[nH]c1=O	EC50	-	205	CEM + CEM-SS	-	cytopathic effect / XTT	0.0017 µM
O=C(O)P(=O)(O)O	EC50	-	IIIB	PBL	21 d	RT activity	<256 µM
Cc1cn([C@H]2C[C@H](N=[N+]=[N-])[C@@H](COP(=O)(O)OC[C@@H]3CC[C@H](n4cnc5c(=O)[nH]cnc54)O3)O2)c(=O)[nH]c1=O	EC50	-	IIIB	MT-4	-	RT activity	0.05 µM
Cc1cc(C)c(Nc2nc(NC3CCN(Cc4cccc(F)c4)CC3)nc3nc[nH]c23)c(C)c1	EC50	-	RES056	MT-4	-	MTT	>30.68 µM
Cc1ccc(S(=O)(=O)c2c(C(=O)NNCCO)[nH]c3ccc(Cl)cc23)c(C)c1	EC50	RT-K103N Y181C	-	MT-4	-	cytopathic effect / MTT	20 µM
COC(=O)c1ccc2ccc(/C=C/c3ccc(O)c(O)c3)nc2c1O	EC50	-	-	CEM	-	ELISA	>9.2 µM
Cc1cn([C@H]2C=C[C@@H](CO)O2)c(=O)[nH]c1=O	EC50	-	IIIB	CEM	-	syncytia	0.35 µM
Cc1cc(C)c2c(N)c(C(N)=O)sc2n1	EC50	-	-	U1	-	p24 / ELISA	1.473 µM
O=C1N(Cc2cccc(-c3cn[nH]c3)c2)[C@H](Cc2ccccc2)[C@H](O)[C@@H](O)[C@@H](Cc2ccccc2)N1Cc1cccc(-c2cn[nH]c2)c1	EC50	-	RF	MT-2	-	-	<0.032 µM
Cc1occc1C(=S)Nc1ccc(Cl)c(/C=N/OC(C)(C)C)c1	EC50	RT-K101E	NL4-3 (RT K101E)	CEM + CEM-SS	-	cytopathic effect / XTT	1 µM
CC(C)=NOC(=O)OC[C@H]1O[C@@H](n2cc(C)c(=O)[nH]c2=O)C[C@@H]1N=[N+]=[N-]	EC50	-	IIIB	MT-4	-	cytopathic effect / MTT	0.029 µM
COC(=O)[C@H](C)NP(=O)(OC[C@@H]1C=C[C@H](n2cc(C)c(=O)[nH]c2=O)O1)Oc1ccccc1	EC50	-	IIIB	CEM/dCK- + CEM	-	syncytia	0.12 µM
COc1ccc(S(=O)(=O)N(CC(C)C)C[C@@H](O)[C@H](Cc2ccccc2)NC(=O)O[C@@H]2CO[C@@H]3OCC[C@@H]32)cc1	EC50	-	IIIB	MT-2 + MT-4	-	-	0.0003 µM
CO[C@H]1O[C@@H](n2ccc(=O)[nH]c2=O)C[C@@H]1N=[N+]=[N-]	EC50	RT-D67N K70N T215F K219Q	AZT-resistant (RT D67N K70R T215F K219Q)	MT-2	-	p24	>200 µM
O=C1N(Cc2cccc(/C=N/O)c2)[C@H](Cc2ccccc2)[C@H](O)[C@@H](O)[C@@H](Cc2ccccc2)N1Cc1cccc(/C=N/O)c1	EC50	-	RF	MT-2	-	-	<0.005 µM
Cn1cc(C(=O)N[C@@H](CC(N)=O)C(=O)N[C@@H](Cc2ccccc2)[C@H](O)C(=O)N2C[C@@H](Cl)C[C@H]2C(=O)NC(C)(C)C)c2ccccc21	EC90	-	IIIB	CEM	-	p24	0.2 µM
CC(C)CN(C[C@@H](O)[C@H](Cc1ccccc1)NC(=O)O[C@H]1CCOC1)S(=O)(=O)c1ccc(N)cc1	EC50	-	LAI	MT-4	-	cytopathic effect / MTT	~0.034 µM
O=C1N(Cc2ccc(CO)cc2)[C@H](Cc2ccccc2)[C@H](O)[C@@H](O)[C@@H](Cc2ccccc2)N1Cc1ccc(CO)cc1	EC50	PR-L10R M46I L63P 184V	NL4-3	MT-4	-	p24	<3 µM
Cc1cn([C@H]2C[C@H](N=[N+]=[N-])[C@@H](CO)O2)c(=O)[nH]c1=O	EC50	-	IIIB	PBMC	-	p24	0.0053 µM
NC(N)=NCCC[C@H](N)C(=O)NC[C@@H]1OC(O[C@H]2[C@@H](O)[C@H](O[C@@H]3[C@@H](O)[C@H](NC(=O)[C@@H](N)CCCN=C(N)N)C[C@H](NC(=O)[C@@H](N)CCCN=C(N)N)[C@H]3O[C@H]3O[C@H](CNC(=O)[C@@H](N)CCCN=C(N)N)[C@@H](O)[C@H](O)[C@H]3NC(=O)[C@@H](N)CCCN=C(N)N)O[C@@H]2CO)[C@H](NC(=O)[C@@H](N)CCCN=C(N)N)[C@@H](O)[C@@H]1O	EC50	AMD3100-resistant	NL4-3	MT-4	-	cytopathic effect / MTT	1.2 µM
CC(C)(C)NC(=O)[C@@H]1[C@@H](Cl)CCN1C(=O)[C@@H](O)[C@H](Cc1ccccc1)NC(=O)[C@H](CC(N)=O)NC(=O)OCc1ccccc1	EC90	-	IIIB	CEM	-	p24	1.5 µM
NC(=O)c1sc2cncc(-c3ccc4c(c3)OCO4)c2c1N	EC50	-	-	U1	-	p24 / ELISA	0.277 µM
CC(C)=CCN1Cc2cc(Cl)cc3[nH]c(=S)n(c23)C[C@@H]1C	EC95	RT-K70R L100I	-	MT-4	-	-	>3 µM
CC(C)CN(C[C@@H](O)[C@H](Cc1ccccc1)NC(=O)[C@H](CC(N)=O)NC(=O)c1ccc2ccccc2n1)C(=O)NC(C)(C)C	EC50	PR-V82T	NL4-3	MT-4	-	p24	<0.1 µM
C=COC(=O)OC[C@@H]1C=C[C@H](n2cc(C)c(=O)[nH]c2=O)O1	EC50	-	IIIB	MT-4	-	cytopathic effect / MTT	0.085 µM
Nc1ncnc2c1ncn2[C@H]1CC[C@@H](CO)O1	EC50	-	IIIB	ATH8	-	cytopathic effect	6 µM
NC(=O)c1sc2cncc(N3CCC4(CC3)OCCO4)c2c1N	EC50	-	-	U1	-	p24 / ELISA	0.173 µM
CC(C)c1nc(CN(C)C(=O)N[C@H](C(=O)N[C@@H](Cc2ccccc2)C[C@H](O)[C@H](Cc2ccccc2)NC(=O)OCc2cncs2)C(C)C)cs1	EC90	PR-D30N N88D	NL4-3	MT-4	-	p24	0.01 µM
N#Cc1ccc(-c2cncc3sc(C(N)=O)cc23)cc1F	EC50	-	-	U1	-	p24 / ELISA	0.108 µM
COc1cccc2c1N(C(=O)OC(C)C)C(CSC)C(=S)N2	EC50	-	IIIB	CEM	-	syncytia	0.0007 µg/mL
CN[C@@H]1[C@@H](O)[C@@H](O[C@@H]2[C@@H](O)[C@H](O[C@H]3O[C@H]([C@@H](C)O)[C@@H](O)[C@H](O)[C@H]3N)[C@@H](N)C[C@H]2N)OC[C@]1(C)O	EC50	-	LAI	H9	-	p24	>200 µM
Cc1cn([C@H]2C[C@H](N=[N+]=[N-])[C@@H](CO)O2)c(=O)[nH]c1=O	EC50	-	IIIB	H9	-	p24	0.002 µg/mL
Cc1cn([C@@H]2C=C[C@H](COC(=O)NCCCCNC(=O)OC[C@@H]3C=C[C@H](n4cc(C)c(=O)[nH]c4=O)O3)O2)c(=O)[nH]c1=O	EC50	-	IIIB	MT-4	-	cytopathic effect / MTT	26 µM
CC(C)=CCOc1cc(NC(=S)c2ccsc2C)ccc1Cl	EC50	-	IIIB	CEM	-	syncytia	0.002 µg/mL
NC(=O)c1cc2c(-c3ccc4c(c3)OCO4)cncc2s1	EC50	-	-	U1	-	p24 / ELISA	0.065 µM
Cc1cc(C)cc(S(=O)(=O)c2c(C(=O)NNCCO)[nH]c3ccc(Cl)cc23)c1	EC50	RT-K103N Y181C	-	MT-4	-	cytopathic effect / MTT	3.2 µM
NC(=O)c1cc2c(-c3ccc4c(c3)CCO4)cncc2s1	EC50	-	92TH014	PBMC	-	p24 / ELISA	0.0196 µM
C/C=C/CSc1cc(NC(=S)c2ccsc2C)ccc1Cl	EC50	RT-Y181C	Diphenyl sulfone-resistant (RT-Y181C)	CEM + CEM-SS	-	cytopathic effect / XTT	>2 µM
Cc1cn([C@H]2C[C@H](N=[N+]=[N-])[C@@H](CO)O2)c(=O)[nH]c1=O	EC50	-	IIIB	MT-2	-	cytopathic effect / MTT	0.09 µM
COC(=O)[C@H](C)NP(=O)(OC[C@@H]1O[C@H](n2ccc(N)nc2=O)CS1)Oc1ccccc1	EC50	-	IIIB	CEM	-	syncytia	1.1 µM
Nc1ncnc2c1ncn2[C@H]1CC[C@@H](CO)O1	EC50	-	-	Monocytes/macrophages	-	-	0.17 µM
COC(=O)c1ccc(COP(=O)(O)OC[C@H]2O[C@@H](n3cc(C)c(=O)[nH]c3=O)C[C@@H]2N=[N+]=[N-])cc1	EC50	-	GB8	JM	-	syncytia	<0.002 µM
O=c1[nH]cnc2c1ncn2[C@H]1CC[C@@H](CO)O1	EC50	-	BZ X4	PBL (activated) + PBL	-	RT activity	2.85 µM
O=C(O)c1ccc2ccc(CCc3ccc(O)c(O)c3)nc2c1O	EC50	-	-	CEM	-	ELISA	>61 µM
Cc1cn([C@H]2C[C@H](N=[N+]=[N-])[C@@H](CO)O2)c(=O)[nH]c1=O	EC50	-	RF	MT-4	-	cytopathic effect / MTT	0.002 µM
CN(C)c1ccc(-c2cncc3sc(C(N)=O)c(N)c23)cc1	EC50	-	-	U1	-	p24 / ELISA	0.038 µM
Cc1cn([C@H]2C[C@H](N=[N+]=[N-])[C@@H](COP(=O)(OCc3ccc(C(=O)OC(C)(C)C)cc3)OCc3ccc(C(=O)OC(C)(C)C)cc3)O2)c(=O)[nH]c1=O	EC50	-	GB8	JM	-	syncytia	1 µM
C=C1[C@H](CO)[C@@H](O)C[C@@H]1n1cnc2c(=O)[nH]c(N)nc21	EC50	-	IIIB	MT-4	-	MTT	0.0095 µM
CC(C)(C)NC(=O)[C@@H]1C[C@H](F)CN1C(=O)[C@@H](O)[C@H](Cc1ccccc1)NC(=O)[C@H](CC(N)=O)NC(=O)OCc1ccccc1	EC90	-	IIIB	CEM	-	p24	5 µM
Nc1ncnc2c1ncn2CCOCP(=O)(O)O	EC50	-	IIIB	CEM	-	syncytia	7 µM
O=C1N(Cc2cccc(-c3ccn[nH]3)c2)[C@H](Cc2ccccc2)[C@H](O)[C@@H](O)[C@@H](Cc2ccccc2)N1Cc1cccc(-c2ccn[nH]2)c1	EC50	-	RF	MT-2	-	-	<0.02 µM
Nc1nc2c(ncn2[C@H]2CC[C@@H](CO)O2)c(=O)[nH]1	EC50	-	IIIB	ATH8	-	cytopathic effect	7 µM
Cc1ccnc2c1NC(=O)c1cccnc1N2C1CC1	EC50	RT-K101E	NL4-3 (RT K101E)	CEM + CEM-SS	-	cytopathic effect / XTT	0.3 µM
C/C=C(/C)C(=O)OC1c2cc3c(c(OC)c2-c2c(cc4c(c2OC)OCO4)C[C@H](C)[C@H]1C)OCO3	EC50	-	IIIB	H9	-	p24	>34 µg/mL
Cc1cn([C@H]2C[C@H](N=[N+]=[N-])[C@@H](COP(=O)(OCc3ccccc3)OCc3ccccc3)O2)c(=O)[nH]c1=O	EC50	-	GB8	JM	-	syncytia	0.0094 µM
Cc1cn([C@@H]2C[C@@H](N=[N+]=[N-])[C@H](COC(=O)OC[C@H]3O[C@@H](n4cc(C)c(=O)[nH]c4=O)C[C@@H]3N=[N+]=[N-])O2)c(=O)[nH]c1=O	EC50	-	IIIB	MT-4	-	cytopathic effect / MTT	0.0028 µM
CC(=O)N1CCN(c2cncc3sc(C(N)=O)c(N)c23)CC1	EC50	-	-	U1	-	p24 / ELISA	0.219 µM
CC(C)[C@H](NC(=O)c1ccc2ccccc2n1)C(=O)N[C@@H](Cc1ccccc1)[C@H](O)CN1CC[C@@H](SCc2cccnc2)C[C@H]1C(=O)NC(C)(C)C	EC50	-	IIIB	C8166	-	p24	0.001 µM
Nc1ccn([C@H]2CC[C@@H](CO)O2)c(=O)n1	EC50	-	IIIB	CEM	-	syncytia	0.02 µM
COC(=O)c1ccc(CN2CCC(Nc3nc(Nc4c(C)cc(C)cc4C)c4[nH]cnc4n3)CC2)cc1	EC50	-	RES056	MT-4	-	MTT	>24.06 µM
Cc1cccc(S(=O)(=O)c2c(C(=O)NNCCO)[nH]c3ccc(Cl)cc23)c1	EC50	RT-K103N Y181C	-	MT-4	-	cytopathic effect / MTT	20 µM
Cc1cn([C@H]2C[C@H](N=[N+]=[N-])[C@@H](CO)O2)c(=O)[nH]c1=O	EC50	-	IIIB	PBL (activated) + PBL	-	RT activity	<0.033 µM
O=C1N(Cc2cccc(-c3nn[nH]n3)c2)[C@H](Cc2ccccc2)[C@H](O)[C@@H](O)[C@@H](Cc2ccccc2)N1Cc1cccc(-c2nn[nH]n2)c1	EC90	-	RF	MT-2	-	-	70 µM
Cc1cn([C@H]2C[C@H](N=[N+]=[N-])[C@@H](CO)O2)c(=O)[nH]c1=O	EC50	-	Clinical isolate 263	MT-4	-	RT activity	0.02 µM
O=C(O)c1ccc2ccc(/C=C/c3ccccc3)nc2c1O	EC50	-	-	CEM	-	ELISA	>31 µM

Again, the opening 4 rows:

structure,read-out,mutations,strain or isolate,cell line,setting,read by,result
Nc1nc(=O)n([C@@H]2C=C[C@H](CO)O2)cc1F,EC50,-,IIIB,MT-2,-,cytopathic effect / MTT,0.09 µM
CCOC(=O)c1ccc(COP(=O)(OCc2ccc(C(=O)OCC)cc2)OC[C@H]2O[C@@H](n3cc(C)c(=O)[nH]c3=O)C[C@@H]2N=[N+]=[N-])cc1,EC50,-,GB8,JM,-,syncytia,0.007 µM
CC(C)(C)NC(=O)[C@@H]1C[C@H](Cl)CN1C(=O)[C@@H](O)[C@H](Cc1ccccc1)NC(=O)[C@H](CC(N)=O)NC(=O)c1noc2ccccc12,EC50,-,IIIB,CEM,-,p24,<0.16 µM
CCOC(=O)c1ccc(COP(=O)(O)OC[C@H]2O[C@@H](n3cc(C)c(=O)[nH]c3=O)C[C@@H]2N=[N+]=[N-])cc1,EC50,-,GB8,JM,-,syncytia,<0.019 µM